Measurements: patent publication US10781426B2 (priority 2012, dated 2020)

Biological target: human dipeptidyl peptidase 4 (DPP4), full length, on cells, human, P27487 1-766

In the case of “S1 Fc variant encompassing residues 1-357 of the MERS CoV spike protein”, the result is reported as “no binding (tested: 15 µg/ml)”.
